Article PMC9891525 (PLOS Pathogens, 2023)
Numbering of substitutions follows the chain as printed. In names and notes the source's numbering stands.

B1: purified monoclonal antibody d7 (S97Y, D54I, N57H) (antibody, V domains shown)
VH: QVQLVESGGGVVQPGRSLRLSCAASGFTFSNYAMYWVRQAPGKGLEWVAVISYIGSHKYYADSVKGRFTISRDNSKNTLYLQMNSLRTEDTAVYYCASGSDYGDYLLVYWGQGTLVTVSS
VL: QSALTQPASVSGSPGQSITISCTGTSSDVGGYNYVSWYQQHPGKAPKLMIYDVSKRPSGVSNRFSGSKSGNTASLTISGLQSEDEADYYCNSLTSIYTWVFGGGTKLTVL
B2: purified monoclonal antibody d9 (S97Y, D54L, N57H) (antibody, V domains shown)
VH: B1 VH with I54L
VL: B1 VL

Target: SARS-CoV-2 Beta variant RBD (SARS-CoV-2, Beta variant (B.1.351), N501Y | K417N | E484K)
Test: SPR

Binder | fold lower KD than the original antibody REGN10987 [times]
B1 | 2
B2 | 2
